{
  "source": "paper PMC8072286",
  "about": "“Gcn5-Related N-Acetyltransferases (GNATs) With a Catalytic Serine Residue Can Play Ping-Pong Too” (Frontiers in Molecular Biosciences, 2021)",
  "system": "CCCCCCCC(=O)N(C)CCN",
  "assay": "purified protein",
  "conditions": "AcCoA held at 0.5 mM; NANMO 0-2.5 mM, used as hydrochloride",
  "data": [
    {"substance": "PA3944 (Pseudomonas aeruginosa PAO1; E102A)", "values": [
      {"measurement": "Km", "result": "101 ± 13", "unit": "µM"},
      {"measurement": "kcat", "result": 0.15, "unit": "s⁻¹"},
      {"measurement": "kcat/Km", "result": 1500, "unit": "M⁻¹ s⁻¹"}
    ]}
  ]
}
